Tested on: Staphylococcus aureus
Details: RN4220

Work on GENTAMICIN yielded an MIC of 0.5 µg/mL.
